Measured values from several laboratories, pooled; numbers as filed in NIAID ChemDB.

Shared fields: tests in culture; species: HIV-1; cell line: CEM + CEM-SS; read-out: fold resistance

Rows are shuffled and stem from different studies. Fold resistance: result on the changed form divided by that on wild type.

structure | strain | changes | method | result
Cc1ccnc2c1NC(=O)c1cccnc1N2C1CC1 | CALO(RT-T139I) | RT-T139I | cytopathic effect / XTT | 1
CC(C)=CCN1Cc2cccc3[nH]c(=S)n(c23)C[C@@H]1C | IIIB(OC-R(I)) | RT-L100I | cytopathic effect / XTT | >1000
CCc1c(Sc2ccccn2)n(COCc2ccccc2)c(=O)[nH]c1=O | IIIB | RT-Y181C | cytopathic effect / XTT | 60
Cc1cn([C@H]2C[C@H](N=[N+]=[N-])[C@@H](CO)O2)c(=O)[nH]c1=O | NL4-3 | RT-Y181C | XTT | 10
Cc1cn([C@H]2C[C@H](N=[N+]=[N-])[C@@H](CO)O2)c(=O)[nH]c1=O | NL4-3 | RT-A98G | cytopathic effect / XTT | 3.33
Cc1ccnc2c1NC(=O)c1cccnc1N2C1CC1 | NL4-3(RT-4XAZT) | RT-D67N K70R T215Y K219Q | XTT | 1
Cc1cn([C@H]2C[C@H](N=[N+]=[N-])[C@@H](CO)O2)c(=O)[nH]c1=O | IIIB(DPS-R(III)) | RT-Y181C | cytopathic effect / XTT | 1.1
C/C=C/CSc1cc(NC(=S)c2ccsc2C)ccc1Cl | UC10/costatolide-resistant (RT K103N) | RT-K103N | cytopathic effect / XTT | >10
Cc1cn([C@H]2C[C@H](N=[N+]=[N-])[C@@H](CO)O2)c(=O)[nH]c1=O | IIIB HEPT-resistant (RT P236L) | RT-P236L | cytopathic effect / XTT | 0.3
CCc1c(C(=O)c2cc(C)cc(C)c2)n(CC2CC=CC2)c(=O)[nH]c1=O | 4XAZT/Y181C (RT D67N K70R Y181C T215Y K219Q) | RT-D67N K70R Y181C T215Y K219Q | cytopathic effect / XTT | 0.15
c1ccc2c(c1)sc1nccn12 | IIIB(DPS-R(III)) | RT-Y181C | cytopathic effect / XTT | >200
Cc1occc1C(=S)Nc1ccc(Cl)c(/C=N/OC(C)(C)C)c1 | Pyridinone-resistant (RT Y181C K103N) | RT-K103N Y181C | cytopathic effect / XTT | >500
CCc1c(Sc2ccccn2)n(COCc2ccccc2)c(=O)[nH]c1=O | IIIB(DPS-R(III)) | RT-Y181C | cytopathic effect / XTT | 84
Cc1ccnc2c1NC(=O)c1cccnc1N2C1CC1 | NL4-3 (RT V106I) | RT-V106I | cytopathic effect / XTT | >100
Cc1c(Sc2ccccc2)n(COCCO)c(=O)[nH]c1=O | IIIB | RT-Y181C | cytopathic effect / XTT | >18

Repeating the final 2 entries:

structure,strain,changes,method,result
Cc1ccnc2c1NC(=O)c1cccnc1N2C1CC1,NL4-3 (RT V106I),RT-V106I,cytopathic effect / XTT,>100
Cc1c(Sc2ccccc2)n(COCCO)c(=O)[nH]c1=O,IIIB,RT-Y181C,cytopathic effect / XTT,>18